{"source": "ChEMBL document CHEMBL6153072", "about": "“Metabolically Stable Adenylation Inhibitors of Biotin Protein Ligase as Antibacterial Agents” (J Med Chem, 2025)", "key": {"[1]": {"system": "Mycobacterium tuberculosis", "experiment": "Selectivity ratio of MIC50 for wild type Mycobacterium tuberculosis H37Rv to MIC50 for Mycobacterium tuberculosis H37Rv harboring high overexpression of BPL", "format": "functional"}, "[2]": {"system": "Mycobacterium tuberculosis", "experiment": "Selectivity ratio of MIC50 for Mycobacterium tuberculosis H37Rv harboring under-expression of BPL to MIC50 for wild type Mycobacterium tuberculosis H37Rv", "format": "functional"}}}
{"smiles": "Nc1ncnc2c1ncn2[C@@H]1O[C@H](CNS(=O)(=O)[N-]C(=O)NCCC[C@@H]2SC[C@@H]3NC(=O)N[C@@H]32)[C@@H](O)[C@H]1O.[Na+]", "values": [{"measurement": "Ratio", "setting": "[1]", "value": 5}, {"measurement": "Ratio", "setting": "[2]", "value": 70}]}
